Earlier results in patent publication US20090088378A1, “LONG LASTING INHIBITORS OF VIRAL INFECTION” (priority 2007, published 2009).

Tested on: NL4-3 (G36D mutation in gp41)
Details: in vitro; cited from earlier work

enfuvirtide
resistance to T-20 conferred by DIV (G36D) mutation in gp41: 8 fold
